Test results as given in US20140271917A1, “CONTROLLED AND PREDICTABLE 2-PATH-WAY DECOMPOSITION OF THERMODYNAMICALLY DOUBLE UNSTABLE OXIDISING AGENTS” (F_OXYDE GMBH, priority 2013, published 2014).

Assay: immersion testing of a dried protein/carbohydrate sample (flexural modulus, swelling)
Conditions: 60 min exposure time, ambient temperature

## [Na+].[OH-] [NaOH]
pH equivalent to Example 1
  flexural modulus, reference substance NaOH at equivalent pH: 0.04
  swelling in percent of dry material, reference substance NaOH at equivalent pH: 18%
pH equivalent to Example 2
  flexural modulus, reference substance NaOH at equivalent pH: 0.06
  swelling in percent of dry material, reference substance NaOH at equivalent pH: 21%
pH equivalent to Example 3
  flexural modulus, reference substance NaOH at equivalent pH: 0.1
  swelling in percent of dry material, reference substance NaOH at equivalent pH: 25%
